Measured values from several laboratories, pooled; numbers as filed in NIAID ChemDB.

Common to all: tests on isolated targets; agent: HIV-1; target: Integrase; read-out: IC50

ICn is the concentration giving n% inhibition. Blank or dashed fields: not listed here. a–b is a range or a potency band. Rows are shuffled and stem from different studies.

SMILES | mutations | read by | value
Cc1cccnc1CN(C)Cc1nc2nccc(N3CCN(C)CC3)c2[nH]1 | - | AlphaScreen | 0.56 µM
CC(C)(C)c1ccc(-c2cncn2C2CCCCC2)cc1 | - | strand transfer / luminescence | 14.6 µM
O=C(OC(Cc1ccc(O)c(O)c1)C(=O)O)c1cc(-c2ccc(O)c(O)c2)c2cc(O)c(O)cc2c1 | - | 3′ processing | 7 µM
CC(C)(CO)C(=O)c1cn2ccn(Cc3cccc(Cl)c3)c(=O)c2c(O)c1=O | - | ELISA | <0.01 µM
O=C(/C=C/c1ccc2ccccc2n1)/C=C/c1ccc2ccccc2n1 | - | - | 1.2 µM
O=C(Cc1ccncc1)Nc1cn2ccn(Cc3cccc(Cl)c3)c(=O)c2c(O)c1=O | - | ELISA | 0.01–0.1 µM
CCN(CC)CCCC(C)Nc1cncc2ccccc12 | - | 3′ processing | >300 µM
N#Cc1ccccc1-c1ccc(CSc2nc3ccccc3s2)cc1 | - | strand transfer | >1000 µM
CSCc1cc(=O)c(O)c2n1CCN(Cc1ccc(Cl)c(Cl)c1)C2=O | - | ELISA | 0.01–0.1 µM
CCN(CC)CCCC(C)Nc1cncc2cc(OC)ccc12 | - | strand transfer | >300 µM
CN1C(=O)[C@@H](c2cc(Cl)c(O)c(Cl)c2)NC(=O)[C@@H]2NC(=O)[C@@H](c3cc(Cl)c(O)c(Cl)c3)NC(=O)[C@H](NC(=O)C(=O)c3cc(Cl)c(O)c(Cl)c3)Cc3c[nH]c4c(cccc34)-c3cc2cc(c3O)Oc2ccc(cc2)C[C@H]1C(=O)O | - | strand transfer | 0.3–0.5 µM
Cc1cc2c(cc1Cl)SC(C(=O)c1ccc3ccccc3c1)=NS2(=O)=O | INTG-C65S | 3′ processing | 30 µM
CC(CC[C@@H](C)[C@H]1CCC2C3C[C@H](OS(=O)(=O)[O-])[C@H]4C[C@H](OS(=O)(=O)[O-])[C@@H](OS(=O)(=O)[O-])C[C@]4(C)C3CC[C@@]21C)C(C)(C)C.[Na+].[Na+].[Na+] | - | - | 0.4 µg/mL
CC(=O)Oc1cc(OC(C)=O)cc(Oc2c(OC(C)=O)cc3c(c2OC(C)=O)Oc2cc(Oc4c(OC(C)=O)cc(OC(C)=O)cc4OC(C)=O)c(OC(C)=O)c(OC(C)=O)c2O3)c1 | - | 3′ processing | >100 µM
CCCCC(C)C1=C(O)C(=O)C2CC(C)CC(C(=O)O)C2C1(C)C(O)CCO | - | strand transfer | 20 µM
COc1ccc(-c2cncn2-c2ccc(Br)cc2)c(OC)c1 | - | strand transfer / luminescence | 7 µM
COC(=O)c1cc(NC(=O)c2nc(NC(=O)c3cc(NC(=O)c4nc(NC(=O)CCCNC(=O)c5cc(NC(=O)c6cc(NC(=O)c7cc(NC(=O)c8nc(NC(=O)CCCN)cn8C)cn7C)cn6C)cn5C)cn4C)cn3C)cn2C)cn1C | - | 3′ processing | 0.75 µM
CCN(CC)CCCC(C)Nc1ccnc2ccccc12 | - | 3′ processing | >300 µM
Fc1ccc(-c2cncn2-c2ccc(Br)cc2)cc1 | - | strand transfer / luminescence | 25.1 µM
Cc1cc2c(cc1Cl)SC(C(=O)c1ccc(Br)cc1)=NS2(=O)=O | INTG-C65S | strand transfer | 65 µM
COC(=O)c1cc(NC(=O)c2nc(NC(=O)c3cc(NC(=O)c4nc(NC(=O)CCCN)cn4C)cn3C)cn2C)cn1C | - | 3′ processing | 35 µM
O=C1C(=O)c2cc(-c3cc(O)c(O)c(O)c3)ccc2C(Oc2c(O)cc(-c3ccc4cc(O)c(O)c(O)c4c3)cc2O)=C1O | - | strand transfer | 0.17 µM
Cc1cc(Cl)cc2c1S(=O)(=O)N=C(C(=O)c1ccc3ccccc3c1)S2 | INTG-C65S | 3′ processing | 20 µM
COC(=O)c1cc(NC(=O)c2nc(NC(=O)c3nc(NC(=O)c4nc(NC(=O)CCCN)cn4C)cn3C)cn2C)cn1C | - | 3′ processing | 1.6 µM
Nc1ccn([C@@H]2CC[C@H](COP(=O)(O)O)O2)c(=O)n1 | - | 3′ processing | 50 µM
O=C(/C=C/c1ncccc1N1CCOCC1)/C=C/c1ncccc1N1CCOCC1 | - | - | >20 µM
O=c1c(-c2ccncn2)cn2ccn(Cc3ccc(Cl)cc3)c(=O)c2c1O | - | ELISA | <0.01 µM
O=S(=O)(Nc1ccccc1C(F)(F)F)c1cccc2cnccc12 | - | strand transfer | 1000 µM
Cc1cc2c(cc1Cl)SC(C(=O)c1ccccc1)=NS2(=O)=O | INTG-C65S | 3′ processing | 90 µM
Cc1cc(=O)n(-c2ccccc2)n1C(=O)c1ccco1 | - | strand transfer | 450 µM
COC(=O)c1cc(NC(=O)c2cc(NC(=O)c3cc(NC(=O)c4nc(NC(=O)CCCN)cn4C)cn3C)cn2C)cn1C | - | 3′ processing | 55 µM
O=C(O)CC(O)CN=Cc1ccccc1O | - | - | >100 µM
O=S(=O)(Nc1ccc(F)c(Cl)c1)c1cccc2cnccc12 | - | 3′ processing | 860 µM
O=C1c2c(O)c(=O)c(-c3cccnc3)cn2CCN1Cc1cccc(Cl)c1F | - | ELISA | 0.01–0.1 µM
Cc1cccnc1/C=C/C(=O)/C=C/c1ncccc1C | - | - | 4 µM
Cc1cc(Cl)cc2c1S(=O)(=O)N=C(C(=O)c1ccc(Cl)c(Cl)c1)S2 | INTG-C65S | 3′ processing | 8 µM
O=C1C(=O)N(Cc2cccc3cccnc23)c2ccccc21 | - | 3′ processing | 1000 µM
O=C(O)C(=O)/C=C(\O)c1cn(-c2ccc(C(F)(F)F)cc2)c(=O)n(-c2ccc(C(F)(F)F)cc2)c1=O | - | strand transfer | 6.6 µM
CC(=O)c1cn2ccn(Cc3cccc(Cl)c3)c(=O)c2c(O)c1=O | - | ELISA | <0.01 µM
COC(=O)c1cc(O)c(O)c(O)c1 | - | 3′ processing | 228.5 µM
O=C(C1=NS(=O)(=O)c2ccc(Cl)cc2S1)c1ccc(Cl)cc1 | INTG-C65S | strand transfer | 100 µM
O=C1C(=O)N(Cc2ccccc2[N+](=O)[O-])c2ccccc21 | - | 3′ processing | 800 µM
CCCC(=O)Nc1cn2ccn(Cc3cccc(Cl)c3)c(=O)c2c(O)c1=O | - | ELISA | <0.01 µM
Cc1ccc(Cn2c3ccccc3c3cc(C(=O)NO)ncc32)cc1 | - | strand transfer | >50 µM
O=S(=O)(Cc1ccc(Br)cc1)c1nc2ccccc2s1 | - | 3′ processing | >1000 µM
O=C(NCCN1CCCC1=O)c1cn2ccn(Cc3cccc(Cl)c3)c(=O)c2c(O)c1=O | - | ELISA | 0.01–0.1 µM
O=S(=O)(Cc1cccc2cccnc12)c1nc2ccccc2s1 | - | 3′ processing | >1000 µM
COC1NC(=O)/C(=C(\O)[C@@H]2C3C(C=C(C)[C@H]2C[C@H]2OC4(CC[C@H](C)[C@@H](c5cc(O)cc(O)c5)O4)[C@@H](C)C[C@@H]2C)CC[C@@H](O)[C@@H]3C)C1=O | - | strand transfer | 6.1 µM
C=C(CC[C@@H](C)[C@H]1CC[C@@]2(C)C3C[C@H](OS(=O)(=O)[O-])[C@H]4C[C@H](OS(=O)(=O)[O-])[C@@H](OS(=O)(=O)[O-])C[C@]4(C)C3=CC[C@]12C)C(C)(C)C.[Na+].[Na+].[Na+] | - | - | 1.8 µg/mL
Nc1ccn([C@@H]2CO[C@H](COP(=O)(O)O[C@H]3C[C@H](n4cnc5c(N)ncnc54)O[C@@H]3COP(=O)(O)O)[C@H]2O)c(=O)n1 | - | 3′ processing | >1000 µM

The first 5 rows once more:

| SMILES | mutations | read by | value |
|---|---|---|---|
| Cc1cccnc1CN(C)Cc1nc2nccc(N3CCN(C)CC3)c2[nH]1 | - | AlphaScreen | 0.56 µM |
| CC(C)(C)c1ccc(-c2cncn2C2CCCCC2)cc1 | - | strand transfer / luminescence | 14.6 µM |
| O=C(OC(Cc1ccc(O)c(O)c1)C(=O)O)c1cc(-c2ccc(O)c(O)c2)c2cc(O)c(O)cc2c1 | - | 3′ processing | 7 µM |
| CC(C)(CO)C(=O)c1cn2ccn(Cc3cccc(Cl)c3)c(=O)c2c(O)c1=O | - | ELISA | <0.01 µM |
| O=C(/C=C/c1ccc2ccccc2n1)/C=C/c1ccc2ccccc2n1 | - | - | 1.2 µM |